Measurements from paper PMC5467912, “Asymmetric regulation of quorum-sensing receptors drives autoinducer-specific gene expression programs in Vibrio cholerae” (PLoS Genetics, 2017).
Values joined by “and” are separate entries in the source; they are usually repeats but may differ in a detail not shown here. Identical values can stand only once. Like-named read-outs stand apart in the source and are kept apart here.

Details: for CAI-1 (nM) in cell-free fluids: replicates

For `CCCCCCCCCC(=O)[C@@H](O)CC` [CAI-1, (S)-3-hydroxytridecan-4-one], the “Ave CAI-1” value (OD600 0.5) was 27 nM and 27.4709 nM, the “CAI-1 (nM) in cell-free fluids” value (OD600 0.5) was 32.8223 nM and 20.9533 nM and 33.3685 nM and 18.2236 nM and 31.9871 nM and the “Ave CAI-1” value (OD600 1) was 81.6428 nM. The “CAI-1 (nM) in cell-free fluids” value (OD600 1) was 100.073 nM and 77.1014 nM and 125.493 nM and 64.4265 nM and 79.691 nM and 64.1519 nM and 71.83 nM and 70.3761 nM, the “Ave CAI-1” value (OD600 1.2) was 150.521 nM and the “CAI-1 (nM) in cell-free fluids” value (OD600 1.2) was 139.778 nM and 154.831 nM and 156.953 nM. The “Ave CAI-1” value (OD600 1.5) was 208.667 nM, the “CAI-1 (nM) in cell-free fluids” value (OD600 1.5) was 230.043 nM and 217.321 nM and 178.636 nM and the “Ave CAI-1” value (OD600 2) was 220 nM and 221.953 nM. The “CAI-1 (nM) in cell-free fluids” value (OD600 2) was 223.541 nM and 215.561 nM and 226.756 nM and the “CAI-1 in cell-free culture fluids” value (OD600 < 0.5) was “undetectable”.
